Anti-infective test results gathered from many reports (values: NIAID ChemDB through PubChem).

Common to all: toxicity to cultured cells; measure: CC50

CCn: concentration that lowers growth or viability of the cells by n%. Neighbouring rows are from separate reports. a–b is a range or a potency band. An empty or dashed field is not shown.

structure	cells	read by	value
CC(C)[C@H](NC(=O)C(Cc1ccccc1)CS(=O)(=O)CCO)C(=O)N[C@@H](Cc1ccccc1)[C@@H](O)[C@H](O)[C@H](Cc1ccccc1)NC(=O)[C@@H](NC(=O)C(Cc1ccccc1)CS(=O)(=O)CCO)C(C)C	PBLC		>6 µM
Nc1[nH]c(N=NC(=O)c2ccccn2)c2cccc(Oc3ccccc3)c12	L6		22 nM
CCCC(=O)O[C@@]12[C@H](OC(=O)/C=C/c3ccccc3)[C@@H](C)[C@@]3(O)[C@@H](C=C(CO)C[C@]4(O)C(=O)C(C)=C[C@@H]34)[C@@H]1C2(C)C	C8166	MTT	32.3 µM
CC(C)Nc1nc2cc(Cl)c(Cl)cc2n1[C@H]1O[C@@H](CO)[C@H](O)[C@@H]1O	CEM-CD+4		35–72 µM
NC(=S)Nc1cccc(OCCCCCCCc2ccccc2)c1	Ava5-EG(delta4AB)SEAP	MTS	>1 µM
Nc1[nH]c(N=NC(=O)c2ccccn2)c2cccc(Sc3ccc(Cl)cc3)c12	L6		7 nM
O=c1[nH]c(=O)n([C@@H]2CO[C@H](CO)O2)cc1/C=C/Br	HEL 299		>200 µM
COc1cc(OC[C@H]2CC[C@@H](COCc3ccccc3)O2)ncn1	CAKI-1		90 µM
Brc1ccccc1-c1cc2c(-c3ccnc(NC4CCCC4)n3)ccc(NC3CCCC3)n2n1	VERO 76		>40 µM
NC(=S)Nc1ccc2c(c1)Cc1cc(NC(N)=S)ccc1-2	Ava5-EG(delta4AB)SEAP	MTS	>1 µM
Nc1nc2c(ncn2COCCO)c(=O)[nH]1	HEL 299		>200 µM
CCN(CC)S(=O)(=O)c1cccc2c(N=NC(=O)c3ccccn3)[nH]c(N)c12	L6		31 nM
CCCCCCNC(=S)Nc1ccc2c(c1)Cc1cc(Br)ccc1-2	Ava5-EG(delta4AB)SEAP	MTS	>1 µM
C=CCc1ncn2c(=O)[nH]c(NC(C)=O)nc12	PRK		200 µg/mL
Nc1[nH]c(N=NC(=O)c2ccccn2)c2cccc(Sc3ccccc3)c12	L6		7 nM
COc1cccc(Cc2cc(C3CCN(C(=O)c4ccc5c(c4)OCO5)CC3)nc(N)n2)c1	Jurkat cells (PMA-stimulated)		0.3 µM
CC(O)[C@H](NC(=O)[C@H](Cc1cccc2ccccc12)CS(=O)(=O)C(C)(C)C)C(=O)N[C@@H](Cc1ccccc1)[C@@H](O)[C@H](O)[C@H](Cc1ccccc1)NC(=O)[C@@H](NC(=O)[C@H](Cc1cccc2ccccc12)CS(=O)(=O)C(C)(C)C)C(C)O	PBLC		>2 µM
COC(=O)c1cc(O)cc(OC)c1C(=O)c1c(O)cc(C)cc1O	Huh7.5.1	MTT	>50 µM
CCCCCCCCSc1nc(N)nc2c1ncn2/C=C1/C[C@@H]1CO	Akata	ATP	>20 µM
CCOC(=O)/C=C/[C@H](Cc1ccccc1)NC(=O)[C@H](CC(C)C)NC(=O)OC(C)(C)C	HeLa cells	cell count	203 µM
Nc1[nH]c(N=NC(=O)c2ccccn2)c2c(Sc3ccccc3)cccc12	L6		237 nM
COc1ccnc2[nH]cc(C(=O)C(=O)N3CCN(C(=O)c4ccccc4)C[C@H]3C)c12	SK-N-MC		>225 µM
C[C@H](O)Cc1cc2c(O[C@H]3O[C@H](CO)[C@@H](O)[C@H]3O)ccc(O)c2c(=O)o1	SW-480	MTT	>40 µg/mL
CC(C)[C@H](NC(=O)[C@H](Cc1cccc2ccccc12)CS(=O)(=O)C(C)(C)C)C(=O)N[C@@H](Cc1ccc(O)cc1)[C@@H](O)[C@H](O)[C@H](Cc1ccc(O)cc1)NC(=O)[C@@H](NC(=O)[C@H](Cc1cccc2ccccc12)CS(=O)(=O)C(C)(C)C)C(C)C	PBLC		>0.3 µM
CSc1nsc(-c2ccc(OS(=O)(=O)c3ccc(C)cc3)cc2)c1C#N	L929		>25 µM
CC(=O)O[C@@]12[C@H](OC(=O)CCCCCCBr)[C@@H](C)[C@@]3(O)[C@@H](C=C(CO)C[C@]4(O)C(=O)C(C)=C[C@@H]34)[C@@H]1C2(C)C	C8166	MTT	73.6 µM
Nc1nccc2c1ncn2[C@@H]1O[C@H](CSCCC(N)C(=O)O)C[C@H]1O	PRK/E6SM		400 µg/mL
COc1ccc(OC)c(OC)c1CNC(=O)c1ccc2cccnc2n1	WST-1		>56.6 µM
CC(=O)O[C@@]12[C@H](OC(=O)/C=C/c3ccccc3)[C@@H](C)[C@@]3(O)[C@@H](C=C(CO)C[C@]4(O)C(=O)C(C)=C[C@@H]34)[C@@H]1C2(C)C	C8166	MTT	75.1 µM
Clc1ccc(-c2cc3c(-c4ccnc(NC5CCCC5)n4)ccc(NC4CCCC4)n3n2)cc1	VERO 76		>40 µM
CC(C)COc1nc(N)nc2c1ncn2/C=C1/C[C@@H]1CO	Akata	ATP	>20 µM
Nc1nccc2c1ncn2[C@H]1CC[C@@H](CO)O1	PRK/E6SM		200 µg/mL
COc1ccc(-c2c(C)nc(N)nc2C2CCN(C(=O)c3ccc4c(c3)OCO4)CC2)cc1	Jurkat cells (PMA-stimulated)		>5 µM
CCCOC(=O)C(CCSC[C@H]1O[C@@H](n2ccc3c(N)ncnc32)[C@H](O)[C@@H]1O)NC(C)=O	PRK/E6SM		400 µg/mL
O=[N+]([O-])c1ccc(N=NNc2ccc([N+](=O)[O-])cc2Br)c(Br)c1	J774A.1	neutral red	52.46 µM
Nc1nccc2c1ncn2[C@@H]1O[C@H](CO)C[C@H]1O	PRK/E6SM		200 µg/mL
c1ccc(COC[C@H]2CC[C@@H](COc3cc(OC[C@H]4CC[C@@H](COCc5ccccc5)O4)ncn3)O2)cc1	PC-3		17 µM
CCC(C)Oc1ccc(-c2cc3c(-c4ccnc(NC5CCCC5)n4)ccc(NC4CCCC4)n3n2)cc1	VERO 76		>100 µM
CC(C)[C@H](NC(=O)COc1cccc2ccccc12)C(=O)N[C@@H](Cc1ccccc1)[C@@H](O)[C@H](O)[C@H](Cc1ccccc1)NC(=O)[C@@H](NC(=O)COc1cccc2ccccc12)C(C)C	PBLC		>0.041 µM
Nc1nccc(OC[C@@H]2O[C@H](CO)[C@@H](O)[C@H]2O)n1	L1210		>250 µM
CSc1nsc(-c2ccccc2)c1C#N	L929		20 µM
CCCSc1nc(N)nc2c1ncn2/C=C1/C[C@@H]1CO	Akata	ATP	>20 µM
CCN(CC)CCCC(C)Nc1ccnc2cc(Cl)ccc12	HeLa cells	cell count	121.9 µM
Fc1ccc(-c2cc3c(-c4ccnc(NC5CCC5)n4)ccc(NC4CCC4)n3n2)cc1	VERO 76		>250 µM
CC(=O)N[C@@H](CC(C)C)C(=O)N[C@@H](CC(C)C)C(=O)N[C@H](C=O)CCCN=C(N)N	L132		25 µg/mL
CCCCCCCCC(=O)O[C@@H]1[C@@H](C)[C@]2(O)[C@@H]3C=C(C)C(=O)[C@@H]3CC(CO)=C[C@H]2[C@@H]2C(C)(C)[C@]12OC(=O)CCCCCCCC	C8166	MTT	59.6 µM
NC(=O)c1cccc(-c2cc3c(-c4ccnc(NC5CCCC5)n4)ccc(NC4CCCC4)n3n2)c1	VERO 76		>30 µM
Cc1cc2c(cc1CNC(=O)C1=CN3C[C@H]4OC[C@H](C)N4C(=O)C3C(=O)C1=O)OCCO2	CEM-SS	XTT	>0.01 µM
CC(C)(C)S(=O)(=O)C[C@@H](Cc1cccc2ccccc12)C(=O)N[C@H](C(=O)N[C@@H](Cc1ccccc1)[C@@H](O)[C@H](O)[C@H](Cc1ccccc1)NC(=O)[C@@H](NC(=O)[C@H](Cc1cccc2ccccc12)CS(=O)(=O)C(C)(C)C)C1CCCC1)C1CCCC1	PBLC		>0.007 µM
CC[C@H](/C=C/[C@@H](C)[C@H]1CCC2C3CC=C4CC(O[C@@H]5O[C@H](CO)[C@@H](O)[C@H](O)[C@H]5O)CC[C@]4(C)C3CC[C@@]21C)C(C)C	1A2	XTT	>125 µg/mL
CNC(=O)/C=C/[C@H](Cc1ccccc1)NC(=O)[C@H](Cc1ccccc1)NC(=O)OCc1ccccc1	HeLa cells	cell count	376 µM
COc1ccc(C[C@H](NC(=O)[C@@H](NC(=O)[C@H](Cc2cccc3ccccc23)CS(=O)(=O)C(C)(C)C)C(C)C)[C@@H](O)[C@H](O)[C@H](Cc2ccc(OC)cc2OC)NC(=O)[C@@H](NC(=O)[C@H](Cc2cccc3ccccc23)CS(=O)(=O)C(C)(C)C)C(C)C)c(OC)c1	PBLC		>0.175 µM
OC[C@@H]1CC[C@H](COc2ncnc3nc[nH]c23)O1	CAKI-1		≥250 µM
CC(=O)Nc1nc2c(CC(O)CO)ncn2c(=O)[nH]1	WI-38		>400 µg/mL
NC(=S)Nc1cccc(OCCCCCOc2ccc(-c3ccc(Cl)cc3)cc2)c1	Ava5-EG(delta4AB)SEAP	MTS	>1 µM
Nc1nc(N)nc(OC[C@H]2CC[C@@H](COc3nc(N)nc(N)n3)O2)n1	PC-3		>250 µM
CSc1nsc(-c2ccc(O)cc2)c1C#N	HELA-OHIO		10 µM
N#Cc1cccc(-c2cc3c(-c4ccnc(NC5CCCC5)n4)ccc(NC4CCCC4)n3n2)c1	VERO 76		>20 µM
Cc1nc(Cc2ccccc2)c2[nH]c(=S)[nH]c(=O)n12	VERO		100 µg/mL
CC(=O)NC(CCSC[C@H]1O[C@@H](n2ccc3c(N)ncnc32)[C@H](O)[C@@H]1O)C(=O)OC(C)C	PRK/E6SM		>400 µg/mL
NC(=S)Nc1cccc(OCCCCCOc2ccc(-c3ccoc3)cc2)c1	Ava5-EG(delta4AB)SEAP	MTS	>1 µM
Nc1[nH]c(N=NC(=O)c2ccccn2)c2c1ccc1ccccc12	L6		68 nM
COc1ccc(-c2cc3c(-c4ccnc(NC5CCCC5)n4)ccc(NC4CCCC4)n3n2)cc1	VERO 76		>100 µM
CN(C)c1ccnc(C(=O)N=Nc2[nH]c(N)c3c2ccc2ccccc23)c1	L6		36 nM
Nc1ccc(-c2cc3c(-c4ccnc(NC5CCC5)n4)ccc(NC4CCC4)n3n2)cc1	VERO 76		19 µM
Nc1nc(Cc2ccc(Br)cc2)cc(C2CCN(C(=O)c3ccc4c(c3)OCO4)CC2)n1	Jurkat cells (PMA-stimulated)		0.7 µM
C/C=C/c1occ(C(=O)c2c(OC)cc(OC)cc2C(=O)OC)c(=O)c1OC	Huh7.5.1	MTT	>50 µM
Nc1ccc(-c2nc3ccc(-c4ccc5nc(-c6ccc(N)cc6)[nH]c5c4)cc3[nH]2)cc1	WI38 human lung fibroblasts	sulforhodamine	2.46 µg/mL
CS(=O)c1ccc(Cc2cc(C3CCN(C(=O)c4ccc5c(c4)OCO5)CC3)nc(N)n2)cc1	Jurkat cells (PMA-stimulated)		>5 µM
OC[C@H]1O[C@@H](n2c(Br)nc3cc(Cl)c(Cl)cc32)[C@H](O)[C@@H]1O	CFU-GM		110 µM
Nc1nc2c(ncn2COCCO)c(=O)[nH]1	MA-104		>3000 µM
C[C@@H]1C[C@@H](O)c2c(O[C@H]3O[C@H](CO)[C@@H](O)[C@H]3O)cccc2O1	SW-480	MTT	>40 µg/mL
CC/C=C\C/C=C\C/C=C\C/C=C\C/C=C\CCCC(=O)O[C@@H]1[C@@H](C)[C@@]2(O)[C@@H](C=C(CO)C[C@]3(O)C(=O)C(C)=C[C@@H]23)[C@@H]2C(C)(C)[C@]12OC(C)=O	C8166	MTT	26.4 µM
CC(C)[C@H](NC(=O)[C@H](Cc1cccc2ccccc12)CS(=O)(=O)C(C)(C)C)C(=O)NCCCCNC(=O)[C@@H](NC(=O)[C@H](Cc1cccc2ccccc12)CS(=O)(=O)C(C)(C)C)C(C)C	PBLC		>3 µM
Nc1nc(Cl)cc(OC[C@H]2CC[C@@H](COCc3ccccc3)O2)n1	PC-3		115 µM
CS(=O)(=O)c1ccc(Cc2cc(C3CCN(C(=O)c4ccc5c(c4)OCO5)CC3)nc(N)n2)cc1	Jurkat cells (PMA-stimulated)		>5 µM
C=C(C)[C@@H]1CC[C@]2(C(=O)O)CC[C@]3(C)[C@H](CC[C@@H]4[C@@]5(C)CC[C@H](O)C(C)(C)[C@@H]5CC[C@]43C)[C@@H]12	1A2	XTT	27.2 µg/mL
Nc1[nH]c(N=NC(=O)c2ccccn2)c2c(Oc3ccccc3)cccc12	L6		1289 nM
N#Cc1cccc(OCCCCCOc2cccc(NC(N)=S)c2)c1	Ava5-EG(delta4AB)SEAP	MTS	>1 µM
CCOc1nc(N)nc2c1ncn2/C=C1/C[C@@H]1CO	Akata	ATP	>20 µM
Nc1cc(OCC2O[C@H](COCc3ccccc3)[C@@H](OCc3ccccc3)[C@H]2OCc2ccccc2)nc(N)n1	PC-3		22 µM

9 of the rows above, restated:

CCCCCCNC(=S)Nc1ccc2c(c1)Cc1cc(Br)ccc1-2 ; cells: Ava5-EG(delta4AB)SEAP ; read by: MTS ; value: >1 µM
CCN(CC)S(=O)(=O)c1cccc2c(N=NC(=O)c3ccccn3)[nH]c(N)c12 ; cells: L6 ; value: 31 nM
Nc1[nH]c(N=NC(=O)c2ccccn2)c2c(Sc3ccccc3)cccc12 ; cells: L6 ; value: 237 nM
O=c1[nH]c(=O)n([C@@H]2CO[C@H](CO)O2)cc1/C=C/Br ; cells: HEL 299 ; value: >200 µM
CN(C)c1ccnc(C(=O)N=Nc2[nH]c(N)c3c2ccc2ccccc23)c1 ; cells: L6 ; value: 36 nM
CC(C)[C@H](NC(=O)[C@H](Cc1cccc2ccccc12)CS(=O)(=O)C(C)(C)C)C(=O)NCCCCNC(=O)[C@@H](NC(=O)[C@H](Cc1cccc2ccccc12)CS(=O)(=O)C(C)(C)C)C(C)C ; cells: PBLC ; value: >3 µM
Nc1nccc2c1ncn2[C@H]1CC[C@@H](CO)O1 ; cells: PRK/E6SM ; value: 200 µg/mL
Nc1ccc(-c2cc3c(-c4ccnc(NC5CCC5)n4)ccc(NC4CCC4)n3n2)cc1 ; cells: VERO 76 ; value: 19 µM
Nc1[nH]c(N=NC(=O)c2ccccn2)c2cccc(Oc3ccccc3)c12 ; cells: L6 ; value: 22 nM